Measured values from US20240150396A1 (The Texas A&M University System, priority 2021, published 2024).

Key:
[1] = tested on: SARS-CoV-2 in Vero E6 cells; test: Anti-CoV-2 activity in Vero E6 cells; type: cell-based; settings: read-out: Anti-CoV-2 EC50 Vero E6 Cells
SARS-CoV-2 3CL protease = SARS-CoV-2 3CL protease (Severe acute respiratory syndrome coronavirus 2 (2019-nCoV) (SARS-CoV-2), UniProt P0DTD1); settings: read-out: Ki* 3CLpro; pH 7.5
[2] = tested on: SARS-CoV-2 in A549/ACE2 cells; settings: read-out: Anti-CoV-2 EC50 A549/ACE2 Cells

Question: How did the pEC50 [1] turn out when `O=C[C@H](Cc1ccc[nH]c1=O)NC(=O)[C@H](Cc1ccc([N+](=O)[O-])cc1)NC(=O)c1cc2ccccc2[nH]1` was run?
Answer: < 4.70

Question: `CC(C)C[C@H](NC(=O)c1cc2ccccc2[nH]1)C(=O)N[C@H](C=O)Cc1ccc[nH]c1=O` was tested. Which pEC50 [1] did it give?
Answer: < 4.70

Question: `CC(=O)N[C@H](C(=O)N1CCC[C@H]1C(=O)N[C@H](C=O)Cc1ccc[nH]c1=O)C(C)C` was tested. Which pEC50 [1] did it give?
Answer: < 4.70

Question: With `CC(=O)N[C@H](C(=O)N[C@@H](CC1CCCCC1)C(=O)N[C@H](C=O)Cc1ccc[nH]c1=O)C(C)C` as the molecule, how does the pEC50 [1] read?
Answer: < 4.70

Question: And the pKi (SARS-CoV-2 3CL protease)?
Answer: 7.22

Question: Which results are given for `CC(C)[C@H](NC(=O)OCc1ccccc1)C(=O)N[C@@H](CC1CCCCC1)C(=O)N[C@H](C=O)Cc1ccc[nH]c1=O`?
Answer: pEC50 [2]: 5.30; pKi (SARS-CoV-2 3CL protease): 8.05

pEC50, pKi: −log10 of the molar value.
